Reference: patent publication US7553832B2, “Methods and compositions for specific inhibition of protein splicing by small molecules” (Boston Biomedical Research Institute, priority 2005, dated 2009)

Sequences of proteins named here, by UniProt entry; tags and fusion partners are left off. A line that says so, or that is headed by a name, gives the form on record, which may keep a tag or linker.
UniProt P9WHJ3, with tags, fused parts or gaps limits assumed: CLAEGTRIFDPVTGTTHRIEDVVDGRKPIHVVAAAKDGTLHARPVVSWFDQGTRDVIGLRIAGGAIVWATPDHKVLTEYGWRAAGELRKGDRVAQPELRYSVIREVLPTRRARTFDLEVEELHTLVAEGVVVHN

Tests used:
[1] = molecular target: M. tuberculosis RecA intein (Mycobacterium tuberculosis, UniProt P9WHJ3); test: GFP-RecA intein fusion fluorometric protein splicing assay (Assay #1, Intein & GFP); format: biochemical; settings: read-out: RecA intein IC50; fluorescent GFP-linked protein splicing, 5 to 40 μM tested
BCG = BCG MIC; format: cell-based
Mtu H37Rv = Mtu H37Rv MIC; format: cell-based, M. tuberculosis

| Compound | IC50 [1] [µM] | BCG MIC (BCG) [µg/mL] | Mtu H37Rv MIC (Mtu H37Rv) [µg/mL] |
| --- | --- | --- | --- |
| N=C(N)c1ccc(NC(=O)Nc2cccc(C(=N)N)c2)cc1 | 8 |  |  |
| Cc1cc(Sc2c([N+](=O)[O-])cc(C(F)(F)F)cc2[N+](=O)[O-])c(Cl)cc1Cl | < 5 |  |  |
| Cc1nn2c(c1[N+](=O)[O-])n1nc(C)c([N+](=O)[O-])c1n1nc(C)c([N+](=O)[O-])c21 | 6 | 5 | 10 |
| O=C(c1c[nH]c(C(=O)C(Cl)(Cl)Cl)c1)c1c(Cl)cccc1Cl | < 5 |  |  |
